Values from PubChem BioAssay AID624099 (ICCB-Longwood, 2012).
Purpose: 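Human genes that papillomavirus E2 requires to repress the HPV18 LCR promoter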 (primary screen). System: human C33A cervical carcinoma cells (HPV-negative) stably expressing BPV1 E2 and an HPV18 LCR luciferase reporter. Reagent: siRNA pool against human genes, 40 nM. Duration: 72 h. Detection: 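Per-well luciferase luminescence, z-scored on each plate against the plate mean and SD with control wells left out, then averaged across three replicate plates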. Direction: mean z-score and z-score: higher = stronger reporter signal, weaker E2 silencing. Active means: 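Hit if mean z-score reaches 2 and two or more of three replicate z-scores also reach 2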.
In all, the deposit lists about 21,000 reagents; below is an unselected part. 497 of all reagents (2.4%) were called active. 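Higher z means weaker E2 silencing; only reporter increases were scored, and knock-downs that hurt cell survival may mask genuine repressor factors.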 Unmarked entries are inactive. The numbers tell different reagents against one gene apart.

With COQ10B (GeneID 80219), what does the deposit list?
mean z-score: 0.23; z-score, replicate A: 0.03; z-score, replicate B: 0.19; z-score, replicate C: 0.48

For HCN2 (GeneID 610), how do the results read?
mean z-score: -0.9; z-score, replicate A: -0.8; z-score, replicate B: -1.17; z-score, replicate C: -0.74

Which result is listed for PLAAT4 (GeneID 5920)?
mean z-score: 1.28; z-score, replicate A: 1.27; z-score, replicate B: 1.29; z-score, replicate C: 1.29

What is on record for HSD17B14 (GeneID 51171)?
mean z-score: 2.94 (active); z-score, replicate A: 3.05; z-score, replicate B: 2.99; z-score, replicate C: 2.78

How did the screen score C20orf173 (GeneID 140873)?
mean z-score: 1.5; z-score, replicate A: 1.67; z-score, replicate B: 1.14; z-score, replicate C: 1.69

For SNAP23 (GeneID 8773), what does the deposit list?
mean z-score: -0.51; z-score, replicate A: -0.7; z-score, replicate B: -0.38; z-score, replicate C: -0.44

How did the screen score TRIM34 (GeneID 53840)?
mean z-score: 0.03; z-score, replicate A: 0.22; z-score, replicate B: 0.01; z-score, replicate C: -0.13

For DNAJC14 (GeneID 85406), how do the results read?
mean z-score: 0.2; z-score, replicate A: 0.2; z-score, replicate B: 0.4; z-score, replicate C: 0.02

How did the screen score ZNF875 (GeneID 284459)?
mean z-score: -0.45; z-score, replicate A: -0.54; z-score, replicate B: -0.61; z-score, replicate C: -0.21

A few values from above.
Result of SNAP23 (GeneID 8773) in “mean z-score”: -0.51
Under “mean z-score”, HSD17B14 (GeneID 51171) has 2.94 (active)
Under “z-score, replicate C”, PLAAT4 (GeneID 5920) reads 1.29

More results follow.
With ASMTL-AS1 (GeneID 80161), how do the results read?
mean z-score: 1.54; z-score, replicate A: 1.11; z-score, replicate B: 1.97; z-score, replicate C: 1.53

How did the screen score EPC1 (GeneID 80314)?
mean z-score: 2.14; z-score, replicate A: 2.56; z-score, replicate B: 1.91; z-score, replicate C: 1.95

What did the screen give for NOM1 (GeneID 64434)?
mean z-score: 0.4; z-score, replicate A: 0.11; z-score, replicate B: 0.42; z-score, replicate C: 0.66

With RAG2 (GeneID 5897), what was measured?
mean z-score: 0.17; z-score, replicate A: 0.28; z-score, replicate B: 0.1; z-score, replicate C: 0.13

How did the screen score GUSBP14 (GeneID 11039) #1?
mean z-score: -0.23; z-score, replicate A: -0.2; z-score, replicate B: -0.18; z-score, replicate C: -0.32

For GUSBP14 (GeneID 11039) #2, what does the deposit list?
mean z-score: -0.71; z-score, replicate A: -0.69; z-score, replicate B: -0.99; z-score, replicate C: -0.45

For SEPTIN9 (GeneID 10801), how do the results read?
mean z-score: 0.17; z-score, replicate A: 0.41; z-score, replicate B: -0.27; z-score, replicate C: 0.38

What did the screen give for SPINK1 (GeneID 6690)?
mean z-score: -0.05; z-score, replicate A: -0.27; z-score, replicate B: 0.06; z-score, replicate C: 0.05

For XPO6 (GeneID 23214), how do the results read?
mean z-score: 0.35; z-score, replicate A: 0.42; z-score, replicate B: 0.33; z-score, replicate C: 0.29

Which result is listed for UGT1A9 (GeneID 54600)?
mean z-score: 2.19 (active); z-score, replicate A: 1.91; z-score, replicate B: 2; z-score, replicate C: 2.67

What did the screen give for PEMT (GeneID 10400)?
mean z-score: -0.2; z-score, replicate A: -0.22; z-score, replicate B: -0.25; z-score, replicate C: -0.13

What did the screen give for GALK2 (GeneID 2585)?
mean z-score: 0.29; z-score, replicate A: 0.33; z-score, replicate B: 0.1; z-score, replicate C: 0.44
